Compound potency records, mixed from different reports. Data source: NIAID ChemDB in PubChem.

Shared fields: target-level tests; species: Toxoplasma gondii

Conditions beyond the fields shown may differ between rows.

structure	strain or isolate	protein	read-out	tested at	value
C/C(=C/c1coc2nc(N)nc(N)c12)c1ccc(-c2ccccc2)cc1	-	Dihydrofolate reductase	IC50	-	0.3 µM
CC1(C)N=C(N)N=C(N)N1c1ccc(-c2ccc3cc(Cl)ccc3c2)cc1	-	DHFR	IC50	-	1.3 µM
CC(=O)NS(=O)(=O)c1ccc(N)cc1	-	DHFR	IC50	-	42 µM
COc1ccc(N2C(N)=NC(N)=NC2(C)C)c(OC)c1	-	DHFR	IC50	-	>90 µM
COc1cccc(C(C)Cc2coc3nc(N)nc(N)c23)c1	-	Dihydrofolate reductase	IC50	-	28 µM
Nc1nc(N)c2cc(F)ccc2n1	-	DHFR	IC50	-	104 µM
CC(Cc1coc2nc(N)nc(N)c12)c1ccc(Cl)cc1Cl	-	Dihydrofolate reductase	IC50	-	2.9 µM
CC(=O)Nc1ccc(C(=O)O)cc1	RH	DHPS	inhibition	1000 µM	92.8%
Nc1nc(N)c2nc(CCCc3ccccc3)c(CCCc3ccccc3)nc2n1	-	DHFR	IC50	-	1 µM
COc1cc(N(C)Cc2csc3nc(N)nc(N)c23)cc(OC)c1OC	-	DHFR	IC50	-	>10 µM
Nc1nc(N)c2nc(CCc3ccccc3)c(CCc3ccccc3)nc2n1	-	DHFR	IC50	-	4.8 µM
Cc1cc(NS(=O)(=O)c2ccc(N)cc2)no1	-	DHPS	Ki	-	21 µM
COc1ccc(OC)c(/C(C)=C/c2coc3nc(N)nc(N)c23)c1	-	Dihydrofolate reductase	IC50	-	15 µM
Nc1nc(N)c2nc(Cc3ccc(Cl)cc3)c(Cc3ccc(Cl)cc3)nc2n1	-	DHFR	IC50	-	2.5 µM
CC(Cc1coc2nc(N)nc(N)c12)c1ccc(Cl)c(Cl)c1	-	Dihydrofolate reductase	IC50	-	5 µM
Cc1noc(NS(=O)(=O)c2ccc(N)cc2)c1C	-	DHPS	Ki	-	21 µM
COc1ccc(OC)c(N(C)Cc2csc3nc(N)nc(N)c23)c1	-	DHFR	inhibition	10 µM	<30%
C/C(=C\c1coc2nc(N)nc(N)c12)c1cc(Cl)ccc1Cl	-	Dihydrofolate reductase	IC50	-	10 µM

A second listing of 2 rows from above:

Nc1nc(N)c2nc(CCc3ccccc3)c(CCc3ccccc3)nc2n1 ; protein: DHFR ; read-out: IC50 ; value: 4.8 µM
COc1ccc(OC)c(/C(C)=C/c2coc3nc(N)nc(N)c23)c1 ; protein: Dihydrofolate reductase ; read-out: IC50 ; value: 15 µM

An empty or dashed field is not shown. ICn: concentration for n% inhibition. Percent inhibition refers to the dose given; in toxicity tests it is the harm to the cells.